Test results published in patent US20100034839A1 (priority 2008, published 2010).

Assay: peptide made by a vendor
Details: whole synthesis

Final HPLC purity, >95%:
ANSGFRIMAVLASGGQY
KALVQNDTLLQVKG
SGGGANSGFRIMAVLASGGQY
SGGGKALVQNDTLLQVKG
SKMRMATPLLMQALY

End groups of sequences in plain letters are not given here. One purity is given for all peptides; the source may state it once.
